One substance from PMC5465072 (Scientific Reports, 2017) can be followed below.

By UniProt entry, the sequences of proteins in these tests, tags left out. Residues count along the entry.
UniProt P13423, 517-764 limits assumed: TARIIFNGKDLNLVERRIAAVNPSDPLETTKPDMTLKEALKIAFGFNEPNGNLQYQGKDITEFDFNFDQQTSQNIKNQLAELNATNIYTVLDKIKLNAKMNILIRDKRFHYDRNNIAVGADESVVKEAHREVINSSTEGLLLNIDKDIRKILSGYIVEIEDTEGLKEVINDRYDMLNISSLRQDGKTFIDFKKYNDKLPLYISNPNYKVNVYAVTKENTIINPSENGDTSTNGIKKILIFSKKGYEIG
UniProt P58335, 38-218 limits assumed: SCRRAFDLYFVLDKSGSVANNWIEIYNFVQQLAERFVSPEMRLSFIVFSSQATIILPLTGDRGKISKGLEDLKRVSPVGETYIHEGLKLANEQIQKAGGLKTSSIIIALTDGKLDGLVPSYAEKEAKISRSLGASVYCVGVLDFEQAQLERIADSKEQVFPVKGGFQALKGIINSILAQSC

The experiment has as its target His6-PA488–735 / GST-CMG2_38–218 interaction (UniProt P13423+P58335). The class given is biochemical, Bacillus anthracis PA / human CMG2.

On to FCRTL, for which the “IC50 for disruption of the interaction of His6-PA488–735 and GST-CMG2_38–218” value was “does not inhibit”.
